Our source for the EC50 values is US20070190523A1 (priority 2002, published 2007).

One experiment has as its system 30N82I88D. To be noted: read-out: Cell-based assay (MT-4) EC50/nM 30N82I88D; MT-4, 30N82I88D.
In another experiment the target is WT (Human immunodeficiency virus type 1 group M subtype B, UniProt P04585). The experiment is described as follows: Cell-based assay (MT-4) EC50, WT. To be noted: read-out: Cell-based assay (MT-4) EC50/nM WT; MT-4, WT. Details: species or system HIV.
The subject of experiment [1] is wild-type HIV-1 strain IIIB. The experiment is described as follows: Anti-HIV-1 Cell Culture Assay (EC50), XTT, MT2 cells. The experiment is classed as cell-based. A general note: Formazan colour is commonly taken as a measure of viable cells.

Where only a bound is given, the exact number is not on record here.

Take `Nc1n[nH]c2ccc(CN3C(=O)N(Cc4cccc(C(=O)O)c4)[C@H](Cc4ccccc4)[C@H](O)[C@@H](O)[C@H]3Cc3ccccc3)cc12` [drawing 801]: the EC50 in the experiment with 30N82I88D was greater than 600 nM.

Take `O=C1N(Cc2ccc3[nH]ncc3c2)[C@H](Cc2ccc(O)cc2)[C@H](O)[C@@H](O)[C@@H](Cc2ccc(O)cc2)N1Cc1ccc2[nH]ncc2c1`: on WT, the EC50 was greater than 600 nM.

The compound `CCCCOC(=O)[C@H](C)NP(=O)(COc1ccc(S(=O)(=O)N(CC(C)C)C[C@@H](O)[C@H](Cc2ccc(N)cc2)NC(=O)O[C@H]2CO[C@H]3OCC[C@H]32)cc1)N[C@@H](C)C(=O)OCCCC` came in with an EC50 in experiment [1] of 500 to 5000 nM.
